PubChem BioAssay AID504761, Drosophila RNAi Screening Center, 2011
The screen tested about 22,000 reagents; this is an unselected part of those that have a named target and a result. Over the whole deposit, 116 (0.52%) were called active. 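Calls depend on retest data that are not deposited; infection was ranked per plate without normalising between plates; the unit of the infection score is not given.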 The raw values are shown without normalisation. Entries without a mark were called inactive. A plus sign joins genes that one reagent is predicted to hit. Further read-outs or replicates are left out here. The record does not give: the amount of reagent, the time to read-out.

Test: 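Insect host genes that dengue virus relies on to spread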 (primary screen)
Cells: D.Mel-2 cells from Drosophila
Reagent: long dsRNA against Drosophila genes
Conditions: infection with dengue virus type 2; dose and infection time not stated
Measurement: 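Cells stained for dengue envelope protein and imaged; percent of infected cells per well on duplicate plates, ranked by infection, with stained nuclei counted for cell number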
Direction: infection score: higher = more virus-infected cells; cell count: higher = more cells in the well
Hit rule: 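Very low infection ranking in both replicate wells (chance probability at most 0.065), then a retest showing infection dropped 1.5-fold or more at p below 0.05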
Calls: active = confirmed: knock-down lowers infection; inactive = not picked or not confirmed

The first 2 entries as a preview:
gene knocked down | dsRNA | infection score, replicate 1 | infection score, replicate 2 | cell count, replicate 1
Men (Malic enzyme) | DRSC12924 | 11.6 | 8.28 | 5790
Men (Malic enzyme) | DRSC16738 | 9.87 | 6.09 | 6031

Main list, from the start:
gene knocked down | dsRNA | infection score, replicate 1 | infection score, replicate 2 | cell count, replicate 1
Men (Malic enzyme) | DRSC12924 | 11.6 | 8.28 | 5790
Men (Malic enzyme) | DRSC16738 | 9.87 | 6.09 | 6031
Men (Malic enzyme) | DRSC22694 | 4.02 | 6.18 | 6642
Cpr65Ea (Cuticular protein 65Ea) | DRSC11027 | 4.52 | 3.16 | 6300
Cpr65Ea (Cuticular protein 65Ea) | DRSC25692 | 2.23 | 6.29 | 6534
Gs1 (Glutamine synthetase 1) | DRSC00753 | 2.94 | – | 6459
Gs1 (Glutamine synthetase 1) | DRSC28916 | 12 | – | 2508
wry (weary) | DRSC00352 | 13.1 | 22.4 | 6668
wry (weary) | DRSC00456 | 13.8 | 4.26 | 6479
wry (weary) | DRSC22414 | 3.33 | 1.22 | 6516
CG32720 | DRSC17529 | 1.3 | 4.44 | 6367
CG10761 | DRSC17753 | – | 26.1 | 350
CG10761 | DRSC27665 | 18.3 | 10.6 | 5172
dpr4 (defective proboscis extension response 4) | DRSC14531 | 6.3 | 5.8 | 5729
dpr4 (defective proboscis extension response 4) | DRSC14929 | 7.52 | 3.75 | 5507
CG32829 | DRSC00961 | 6.13 | 6.12 | 6031
CG32829 | DRSC22805 | 1.58 | 15.2 | 5711
CG1529 | DRSC20515 | 2.61 | 1.56 | 6278
CG1529 | DRSC24433 | 7.09 | 3.27 | 5965
Fer2 (48 related 2) | DRSC15925 | 12.1 | 5.67 | 5463
CR33319 (pseudo) | DRSC01826 | 0.11 (active) | – | 5498
wcd (wicked) | DRSC07051 | 16.8 | 14.8 | 4851
TBC1d7 + mRpS24 | DRSC14611 | 6.38 | 2.79 | 6349
